Measured values from patent US5441936A (priority 1993, dated 1995).

Experiment: general procedure: Boc solid-phase peptide synthesis; MBHA; dicyclohexylcarbodiimide
Conditions: whole synthesis, 215 nm

Ac-RRWWCRC-NH2 (cysteine pairing not given here)
final HPLC purity: greater than 90% pure
